We go through one substance from paper PMC3630508 (Molecular immunology, 2012).

Amino acid sequences for entries named in this document (tags omitted). Residues count along the entry.
UniProt P02745, 23-245: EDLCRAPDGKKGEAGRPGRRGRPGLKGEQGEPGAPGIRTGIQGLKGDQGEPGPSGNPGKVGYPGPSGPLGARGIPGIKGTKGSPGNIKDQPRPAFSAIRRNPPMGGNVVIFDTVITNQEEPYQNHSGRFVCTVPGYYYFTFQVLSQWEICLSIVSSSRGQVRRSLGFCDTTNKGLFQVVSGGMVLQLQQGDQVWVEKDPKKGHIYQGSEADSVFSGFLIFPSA
human C1q, UniProt P02746, 28-253: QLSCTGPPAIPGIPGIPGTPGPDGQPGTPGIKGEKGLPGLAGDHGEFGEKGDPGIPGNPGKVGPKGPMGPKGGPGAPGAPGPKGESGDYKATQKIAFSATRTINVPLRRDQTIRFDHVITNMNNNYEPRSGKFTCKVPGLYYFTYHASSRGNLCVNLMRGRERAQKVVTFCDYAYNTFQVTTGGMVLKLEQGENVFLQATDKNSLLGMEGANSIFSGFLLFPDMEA
human C1q, UniProt P02747, 29-245: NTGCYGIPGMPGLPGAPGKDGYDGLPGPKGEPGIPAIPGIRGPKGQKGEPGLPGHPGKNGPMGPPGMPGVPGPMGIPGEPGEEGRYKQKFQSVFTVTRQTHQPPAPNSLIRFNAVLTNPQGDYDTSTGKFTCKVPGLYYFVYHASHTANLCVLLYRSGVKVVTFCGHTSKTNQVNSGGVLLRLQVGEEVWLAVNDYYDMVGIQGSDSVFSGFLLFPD

Test [1] has as its target coat protein peptide E23A (human astrovirus type 1). Nature of the test: SPR. Background: In SPR one partner is held on a chip, and binding of the other changes the refractive index at the surface.
In test [2] the target is coat protein peptide Δ8-22 (human astrovirus type 1). The test is described as follows: SPR.

As usually defined, the Kd is the free concentration of one partner at which half of the binding sites on the other are occupied at equilibrium, for simple one-to-one binding. Usually koff stands for the first-order rate constant of dissociation. Read a high koff as fast dissociation. In general, kon refers to the second-order rate constant of association.

In the case of “human C1q (from UniProt P02745 23-245; P02746 28-253; P02747 29-245) (complex)”, in test [1], the Kd stood at 6.08 nM, the off-rate (koff) came to 0.000652 s⁻¹ and the on-rate (kon) was 111000 M⁻¹ s⁻¹. Also, in test [2], the Kd was 5.43 nM, the koff stood at 0.00106 s⁻¹ and the kon was 198000 M⁻¹ s⁻¹.
